A mixed list of measured activities; the numbers were collected in NIAID ChemDB.

All rows: whole-cell or culture tests

Inhibition is in % at the dose shown (toxicity tests: loss of growth or viability).

structure | dose | read by | read-out | strain or isolate | cells | organism | mutations | value
CC[C@@]1(O)C(=O)OCc2c1cc1n(c2=O)Cc2cc3c(N)cccc3nc2-1 |  |  | MIC | Mutant ΔERG6 |  | Saccharomyces cerevisiae |  | >100 µg/mL
Nc1ccn(C[C@@H](CO)OCP(=O)(O)O)c(=O)n1 |  | plaque count | EC50 | HPMPC-resistant | C1271 | Mouse cytomegalovirus |  | 4.7 µM
COc1cc2c[n+](C)c3c4cc5c(cc4ccc3c2cc1OC)OCO5 |  |  | MIC | JHY6-1C |  | Saccharomyces cerevisiae |  | 6.25 µg/mL
CCCCCCCCCCCCCCCCCCCCCCOCC(C)(COCCCCCCCCCCCCCCCCCCCCCC)CO[C@]1(C(=O)O)C[C@H](OS(=O)(=O)O)[C@@H](NC(C)=O)[C@H]([C@H](OS(=O)(=O)O)[C@@H](COS(=O)(=O)O)OS(=O)(=O)O)O1 |  | plaque count | EC50 | N869 | HEP-2 | Respiratory syncytial virus |  | 0.12 µM
CC(C)(CO)C(=O)SCCOP(=O)(NCc1ccccc1)OC[C@H]1O[C@@H](n2cnc3c(=O)[nH]c(N)nc32)[C@](C)(O)[C@@H]1O |  | replicon | fold resistance | GT1a | Replicon cells | Hepatitis C virus | Q30K | 0.89
Nc1nccc2c1ncn2C[C@@H](CO)OCP(=O)(O)O |  | antigen / flow cytometry | EC50 | GS | HSB-2 | Human herpesvirus 6 |  | 1.2 µM
Nc1nc2c(ncn2COCCOCP(=O)(O)O)c(=O)[nH]1 |  | plaque count | EC50 | Foscarnet-resistant | C1271 | Mouse cytomegalovirus |  | 24.3 µM
Nc1nc2c(ncn2CC[C@@H](O)CO)c(=O)[nH]1 |  | antigen / flow cytometry | EC50 | GS | HSB-2 | Human herpesvirus 6 |  | >200 µM
CC[C@@]1(OC(=O)CN)C(=O)OCc2c1cc1n(c2=O)Cc2cc3ccccc3nc2-1 |  |  | MIC | Mutant ΔERG6 ΔTOP1 |  | Saccharomyces cerevisiae |  | >100 µg/mL
Cc1ccnc2c1NC(=O)c1cccnc1N2C1CC1 |  |  | EC95 |  | MT-4 | HIV-1 | RT-K70R | 0.4 µM
Nc1nc2c(ncn2COC(CO)CO)c(=O)[nH]1 |  | cytopathic effect | EC50 | GS | HSB-2 | Human herpesvirus 6 |  | >25 µM
CN[C@@H]1[C@H](O[C@H]2[C@H](O[C@H]3[C@H](O)[C@@H](O)[C@H](N=C(N)N)[C@@H](O)[C@@H]3N=C(N)N)O[C@@H](C)[C@]2(O)C=O)O[C@@H](CO)[C@H](O)[C@H]1O |  |  | MIC | ESBL-3967 |  | Klebsiella pneumoniae |  | 25 µg/mL
CCC[C@H](NC(=O)[C@@H]1[C@H]2CCC[C@H]2CN1C(=O)[C@@H](NC(=O)[C@@H](NC(=O)c1cnccn1)C1CCCCC1)C(C)(C)C)C(=O)C(=O)NC1CC1 |  | antigen | EC50 | NZL1 | Huh7.5 | Hepatitis C virus |  | 4.959 µM
CC[C@@]1(OC(=O)CN)C(=O)OCc2c1cc1n(c2=O)Cc2cc3cc4c(cc3nc2-1)OCO4 |  |  | MIC | Mutant ΔERG6 |  | Saccharomyces cerevisiae |  | 0.19 µg/mL
Nc1ncnc2c1ncn2[C@H]1CC[C@@H](CO)O1 |  | virus yield | EC95 | LAV-2 | U-937 | HIV-2 |  | 1 µM
CCO/N=C/c1ccc(OCCC2CCN(c3ccc(C)nn3)CC2)cc1 |  | neutral red | EC50 | 41467 (ICAM-1 receptor group 89) | KB | Rhinovirus |  | 0.002 µM
C[C@H](Cc1ccc(O)c(O)c1)[C@@H](C)Cc1ccc(O)c(O)c1 |  | broth dilution | MIC100 | CCC 123-2000 |  | Candida kefyr |  | 250 µg/mL
C[C@@]1(O)[C@H](O)[C@@H](CO)O[C@H]1c1c[nH]c2c(N)ncnc12 | 50 µg/mL | MTT | inhibition |  | HeLa-5B | Hepatitis C virus |  | 1.07%
Nc1nccc2c1ncn2C[C@H]1COP(=O)(O)CO1 |  | cytopathic effect | EC50 | GS | HSB-2 | Human herpesvirus 6 |  | 3.6 µM
CC[C@@]1(OC(=O)CN)C(=O)OCc2c1cc1n(c2=O)Cc2cc3c(N)c4c(cc3nc2-1)OCO4 |  |  | MIC | JHY6-1C |  | Saccharomyces cerevisiae |  | 6.25 µg/mL
C=CCc1ccc(O)c(-c2ccc(O)c(CC=C)c2)c1 |  | broth dilution | MIC | YL 342 |  | Candida albicans |  | 128 µg/mL
C[C@@H](c1nc(-c2ccc(C#N)cc2)cs1)[C@](O)(Cn1cnnc1)c1ccc(F)cc1F |  |  | MIC | Isogenic isolate 15 Erg11 (4-5X) R467K |  | Candida albicans |  | 0.03 µg/mL
O=c1cnn([C@@H]2O[C@H](CO)[C@@H](O)[C@H]2O)c(=O)[nH]1 |  | virus yield | EC90 | TYPE 2 (NGC) | VERO | Dengue virus |  | 2.1 µg/mL
Nc1ncnc2c1ncn2CCOCP(=O)(O)O |  | plaque count | EC50 | WILD TYPE | C1271 | Mouse cytomegalovirus |  | 2.3 µM
C#Cc1c(C(N)=O)ncn1[C@@H]1O[C@H](CO)[C@@H](O)[C@H]1O |  | plaque count | EC50 | TYPE A/NS-100 | HeLa | Respiratory syncytial virus |  | 0.13 µg/mL
COC(=O)N[C@H](C(=O)N1CCC[C@H]1c1ncc(-c2ccc(-c3ccc(-c4cnc([C@@H]5CCCN5C(=O)[C@@H](NC(=O)OC)C(C)C)[nH]4)cc3)cc2)[nH]1)C(C)C |  | antigen | EC50 | J6 | Huh7.5 | Hepatitis C virus |  | 0.00008 µM
CCCOc1ccc2nc(NC(=O)OC)[nH]c2c1 |  |  | EC50 | IU4 |  | Cryptococcus neoformans |  | <3.2 µg/mL
CC[C@@]1(O)C(=O)OCc2c1cc1n(c2=O)Cc2cc3c(CN(C)C)c(O)ccc3nc2-1 |  |  | MIC | JHY6-1C |  | Saccharomyces cerevisiae |  | >1000 µg/mL
C#CC[C@@H](C(=O)N[C@H](/C=C/C(=O)OCC)C[C@@H]1CCNC1=O)n1cccc(NC(=O)c2cc(C)on2)c1=O | 0.1 µM | cytopathic effect / XTT | inhibition | Serotype 31 | H1-HELA | Rhinovirus |  | 90%
Nc1nc2c(ncn2CC(CO)OCP(=O)(O)O)c(=O)[nH]1 |  | plaque count | EC50 | HPMPC-resistant | C1271 | Mouse cytomegalovirus |  | 3.1 µM
Nc1ncnc2c1cnn2C[C@@H](CO)OCP(=O)(O)O |  | antigen / flow cytometry | EC50 | GS | HSB-2 | Human herpesvirus 6 |  | >10 µM
C[C@H]1COc2c(N3CCN(C)CC3)c(F)cc3c(=O)c(C(=O)O)cn1c23 |  |  | MIC | Clinical isolate 6678 |  | Streptococcus pneumoniae |  | 4 µg/mL
C[C@@]1(O)[C@H](O)[C@@H](CO)O[C@H]1n1ccc2c(N)ncnc21 | 10 µg/mL | MTT | inhibition |  | Hep3B-T5B | Hepatitis C virus |  | 1.01%
c1ccc2[nH]cnc2c1 |  |  | EC50 | IU8698 |  | Cryptococcus neoformans |  | <4 µg/mL
O=c1c(O)c(-c2ccc(O)c(O)c2)oc2cc(O)cc(O)c12 |  | broth dilution | MIC50 | Clinical isolate 3 |  | Candida tropicalis |  | >128 µg/mL
COC(=O)Nc1nc2ccc(C(=O)c3cccs3)cc2[nH]1 |  |  | EC50 | IU4 |  | Cryptococcus neoformans |  | 0.13 µg/mL
CCOc1cc(Cc2cnc(N)nc2N)cc(OCC)c1-n1cccc1 |  |  | MBC | ATCC 19423 |  | Mycobacterium ulcerans |  | 0.5 µg/mL
CC1COc2c(N3CCN(C)CC3)c(F)cc3c(=O)c(C(=O)O)cn1c23 |  |  | MIC90 | 10 strains (oxacillin-resistant) |  | Staphylococcus aureus |  | >16 µg/mL
COc1cc(Cc2cnc(N)nc2N)cc(OC)c1OC |  |  | MIC | Isolate 842 |  | Mycobacterium ulcerans |  | >16 µg/mL
Nc1ncnc2c1ncn2CCOCP(=O)(O)O |  | cytopathic effect | EC50 | Oka BVDU-resistant | HEL | Varicella zoster virus |  | 27.5 µM
CC(=O)NC[C@H]1CN(c2ccc(N3CCN(C(=O)CO)CC3)c(F)c2)C(=O)O1 |  |  | MIC90 | Penicillin-susceptible |  | Streptococcus pneumoniae |  | 0.5 µg/mL

Fold resistance has wild type as its base. ECn: concentration that inhibits the pathogen or its effect by n%. A number after MIC or MFC names an inhibition level or a share of isolates. An empty or dashed field is not shown. Neighbouring rows are from separate reports.